# Test results published in article PMC8575991, “Development of molecular clamp stabilized hemagglutinin vaccines for Influenza A viruses” (2021).
# Target: H3 foldon (HA ectodomain with the foldon trimerisation domain) (Influenza A virus A/Switzerland/9715293/2013 (H3N2) | bacteriophage T4)
# Assay: SEC
substance,measurement,value
H3 foldon (HA ectodomain with the foldon trimerisation domain),stoichiometry N,3
